Measurements reported in PubChem BioAssay AID504761 (Drosophila RNAi Screening Center, 2011)
In all, the deposit lists about 22,000 reagents; below is an unselected part of those that have a named target and a result. In the full data, 116 (0.52%) got an active call. 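Calls depend on retest data that are not deposited; infection was ranked per plate without normalising between plates; the unit of the infection score is not given.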 Raw values vary from plate to plate and are shown uncorrected. Unmarked entries are inactive. Reagent sequences are not shown. The record does not give: the amount of reagent, the time to read-out.

Screen: 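Genome-wide fly cell screen for genes dengue virus requires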 (primary screen)
Cells: D.Mel-2 cells from Drosophila
Reagents: long dsRNA against Drosophila genes
Conditions: infection with dengue virus type 2; dose and infection time not stated
Read-out: 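Per well on two replicate plates, imaging gave the percent of cells positive for viral envelope protein, ranked by infection, and a nuclear count of cells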
Direction: infection score: higher = more virus-infected cells; cell count: higher = more cells in the well
Hit rule: 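Low infection ranks in the two replicates (chance level up to 0.065) followed by a retest with a 1.5-fold or larger significant decrease, p below 0.05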
Calls: active = confirmed: knock-down lowers infection; inactive = not picked or not confirmed

predicted target	dsRNA	infection score, replicate 1	infection score, replicate 2	cell count, replicate 1	cell count, replicate 2
CG10298	DRSC12522	2.37	5.82	6615	6273
CG10298	DRSC25489	13.4	9.7	5806	5513
CG9014	DRSC01979	0.51 (active)	0.65	6891	6743
gus (gustavus)	DRSC04885	15.1	46	6378	4596
gus (gustavus)	DRSC04886	14.5	11	5260	1804
gus (gustavus)	DRSC27153	6.43	16.7	6500	6298
CG31550	DRSC12197	10.7	20.5	6800	6095
CG31550	DRSC12198	12.1	15.8	6441	5932
CG31550	DRSC29447	15.4	1	5413	701
Gr47b (Gustatory receptor 47b)	DRSC05275	1.33	0.48	5871	5883
Grip91 (Gamma-tubulin ring protein 91)	DRSC20249	16.9	21.6	6534	6724
CG6569	DRSC16067	0.66 (active)	1.51	7106	7107
Txl (Thioredoxin-like)	DRSC11310	0.41	3.28	6036	6186
bt (bent)	DRSC17129	1.77	4.26	6387	6736
bt (bent)	DRSC17171	1.81	3.21	6469	6797
Ir60d (Ionotropic receptor 60d)	DRSC04218	7.44	9.35	6584	6137
CG14480	DRSC06452	16.3	22	6156	6168
gcl (germ cell-less)	DRSC07623	5.87	5.29	6147	6780
gcl (germ cell-less)	DRSC27995	18.1	21.1	6531	5378
CG10147	DRSC09706	2.85	9.16	6113	5623
CG10147	DRSC29564	7.55	26.2	2039	4574
eEF1gamma (eukaryotic translation elongation factor 1 gamma)	DRSC16659	4.1	4.5	3150	4736
eEF1gamma (eukaryotic translation elongation factor 1 gamma)	DRSC23655	4.21	5.05	6270	6142
Tmem43 (Transmembrane protein 43)	DRSC10964	10.2	8.84	6439	6051
Tmem43 (Transmembrane protein 43)	DRSC26177	5.47	4.94	5393	6538
CG8950	DRSC07300	6.54	16.3	6381	5900
TwdlV (TweedleV)	DRSC24972	3.35	13.4	6274	6739
Syn2 (Syntrophin-like 2)	DRSC06902	20.9	13.4	4557	6601
CG13919	DRSC08388	3.04	2.13	6025	6099
CG12795	DRSC00354	5.83	2.81	6797	6654
Pkg21D (Protein kinase, cGMP-dependent at 21D)	DRSC00772	1.61	2.78	6072	6322
Pkg21D (Protein kinase, cGMP-dependent at 21D)	DRSC29092	6.14	12.2	1385	6469
CR18275 (pseudo)	DRSC18151	6.06	1.47	5367	6888
CR18275 (pseudo)	DRSC28716	10.2	26.2	5839	6090
CG5885	DRSC02910	9.2	3.72	6327	5994
CG5885	DRSC28761	7.97		2447	420
CG7304	DRSC10804	0.96	0.47	5540	5909
CG7304	DRSC29103	10.1	10.8	5208	5328
Cyp4g15 (Cytochrome P450 4g15)	DRSC20240	8.05	10.6	4760	5933
Ets21C (Ets at 21C)	DRSC00751	28.4	30.4	6580	6002
RpL39 (Ribosomal protein L39)	DRSC04651	5.23	0.75	3806	402
CG15144	DRSC02445	1.62	2.76	6188	6691
CG15144	DRSC27073	9.28	4.75	6314	6271
CG32647	DRSC19690	8.07	12.1	6397	7031
CG32647	DRSC19878	19.4	6.71	5769	5874
CG13930	DRSC08399	3.27	3.87	5683	6258
CG13930	DRSC28494	11.3		1605	349
CG42521	DRSC10154	1.78	3.07	6193	5540
CG34345	DRSC02126	5.76	3.42	6437	6905
Grl65a (Gustatory receptor-like 65a)	DRSC08837	1.36	1.1	5861	6156
Grl65a (Gustatory receptor-like 65a)	DRSC25986	4.47	10.7	7085	5916
CG8303	DRSC07140	20.6	7.35	5989	6684
Cpr65Ea (Cuticular protein 65Ea)	DRSC11027	4.52	3.16	6300	6018
Cpr65Ea (Cuticular protein 65Ea)	DRSC25692	2.23	6.29	6534	5737
CRAT (Carnitine O-Acetyl-Transferase)	DRSC12523	8.46	9.66	6728	6736
CRAT (Carnitine O-Acetyl-Transferase)	DRSC29377	14	8.06	5438	1922
Cyp6a23 (Cytochrome P450 6a23)	DRSC07383	10.7	11.3	3774	4477
Cyp6a23 (Cytochrome P450 6a23)	DRSC29473	2.76	15.3	1377	5446
CG2126	DRSC15418		11.1	429	4840
Tusp	DRSC15838	3.31	3.73	6650	6457
PH4alphaNE3 (prolyl-4-hydroxylase-alpha NE3)	DRSC16541	3.38	6.39	6188	6762
PH4alphaNE3 (prolyl-4-hydroxylase-alpha NE3)	DRSC24337	2.59	2.02	6107	6574
CG32243	DRSC08105	6.72	6.32	6873	6074
CG13042	DRSC09923	4.83	5.88	5902	5880
CG13042	DRSC28618	26.1	8.7	6011	5842
aos (argos)	DRSC11323	1.47	0.73	5699	6310
CenG1A (Centaurin gamma 1A)	DRSC02538	8.06	5.69	5557	6121
CenG1A (Centaurin gamma 1A)	DRSC03505	2.4	3.17	6046	6190
CenG1A (Centaurin gamma 1A)	DRSC03506	2.18	9.71	6427	6274
CenG1A (Centaurin gamma 1A)	DRSC28029	16.6	0.28	2028	354
CG8788	DRSC07267	17.2	9.6	5559	6396
CG34354	DRSC15645	7.32	1.67	6015	6811
CG34354	DRSC23054	2.01	1.14	6126	6683
Tctp (Translationally controlled tumor protein)	DRSC15649	7.55	3.67	5751	6761
Tctp (Translationally controlled tumor protein)	DRSC29100	7.92	9.76	1604	6128

Sorted by “infection score, replicate 2” (low to high): some entries from above.
predicted target	dsRNA	infection score, replicate 1	infection score, replicate 2	cell count, replicate 1	cell count, replicate 2
CG6569	DRSC16067	0.66 (active)	1.51	7106	7107
bt (bent)	DRSC17171	1.81	3.21	6469	6797
Txl (Thioredoxin-like)	DRSC11310	0.41	3.28	6036	6186
bt (bent)	DRSC17129	1.77	4.26	6387	6736
Grip91 (Gamma-tubulin ring protein 91)	DRSC20249	16.9	21.6	6534	6724
